Results from patent US20190231791A1, “Combination Therapy” (Eli Lilly and Company, priority 2016, published 2019).

Target: T1, Aβ […] peptide (Homo sapiens)
T1 construct: flowing pE3-42 Aβ peptide or Aβ 1-40 peptide, starting from 100 nM
Assay: Binding by surface plasmon resonance (BIACORE 3000)
Conditions: peptide 100 nM down to 3.125 nM, 25° C.
Procedure: The binding affinity and kinetics of an anti-[…] […] The binding affinity is measured by capturing the anti-[…] Aβ antibody via immobilized protein A on a BIACORE® CMS chip, and flowing pE3-42 Aβ peptide or Aβ 1-40 peptide, starting from 100 nM in 2-fold serial dilution down to 3.125 nM. The experiments are carried out at 25° C. in HBS-EP buffer (GE Healthcare BR100669; 10 mM HEPES, 150 mM NaCl, 3 mM EDTA, 0.05% surfactant P20, pH 7.4). For each cycle, the antibody is captured with 5 μL injection of antibody solution at a 10 μg/mL concentration with 10 μL/min flow rate. The peptide is bound with 250 μL injection at 50 μL/min, and then dissociated for 10 minutes. The chip surface is regenerated with 5 μL injection of glycine buffer at pH 1.5 at 10 μL/mL flow rate. The data is fit to a 1:1 Langmiur binding model to derive kon, koff, and to calculate KD.

Molecule | binding to Aβ 1-40
Antibody I: anti-N3pGlu Abeta antibody with light chain SEQ ID NO: 12 and heavy chain SEQ ID NO: 11 (antibody) heavy: QVQLVQSGAEVKKPGSSVKVSCKASGYTFTDYYINWVRQAPGQGLEWMGWINPGSGNTKYNEKFKGRVTITADESTSTAYMELSSLRSEDTAVYYCTREGETVYWGQGTLVTVSSASTKGPSVFPLAPSSKSTSGGTAALGCLVKDYFPEPVTVSWNSGALTSGVHTFPAVLQSSGLYSLSSVVTVPSSSLGTQTYICNVNHKPSNTKVDKKV[human IgG1 Fc not shown] light: DVVMTQSPLSLPVTLGQPASISCKSSQSLLYSRGKTYLNWFQQRPGQSPRRLIYDVSKLDSGVPDRFSGSGSGTDFTLKISRVEAEDVGVYYCVQGTHYPFTFGQGTKLEIKRTVAAPSVFIFPPSDEQLKSGTASVVCLLNNFYPREAKVQWKVDNALQSGNSQESVTEQDSKDSTYSLSSTLTLSKADYEKHKVYACEVTHQGLSSPVTKSFNRGEC | No appreciable binding
Antibody II: anti-N3pGlu Abeta antibody with light chain SEQ ID NO: 13 and heavy chain SEQ ID NO: 11 (antibody) heavy: QVQLVQSGAEVKKPGSSVKVSCKASGYTFTDYYINWVRQAPGQGLEWMGWINPGSGNTKYNEKFKGRVTITADESTSTAYMELSSLRSEDTAVYYCTREGETVYWGQGTLVTVSSASTKGPSVFPLAPSSKSTSGGTAALGCLVKDYFPEPVTVSWNSGALTSGVHTFPAVLQSSGLYSLSSVVTVPSSSLGTQTYICNVNHKPSNTKVDKKV[human IgG1 Fc not shown] light: DIQMTQSPSTLSASVGDRVTITCKSSQSLLYSRGKTYLNWLQQKPGKAPKLLIYAVSKLDSGVPSRFSGSGSGTEFTLTISSLQPDDFATYYCVQGTHYPFTFGQGTKLEIKRTVAAPSVFIFPPSDEQLKSGTASVVCLLNNFYPREAKVQWKVDNALQSGNSQESVTEQDSKDSTYSLSSTLTLSKADYEKHKVYACEVTHQGLSSPVTKSFNRGEC | No appreciable binding
